The experiment addresses hemagglutinin (HA) of influenza A virus A/California/07/2009 (H1N1pdm) (influenza A virus A/California/07/2009 (H1N1pdm)). The experiment in a line: cell-based or functional assay.

Take “mouse MAb C179 capable of exhibiting a broad reactivity with HAs belonging to group 1”: the Neutralization activity (VN50 value µg/ml) is 3.01 µg/mL.

The values are drawn from US20160264648A1.
